Pooled drug test results. Numbers come from NIAID ChemDB, via PubChem.

ICn is the concentration giving n% inhibition.

{"SMILES": "Oc1ccc(-c2cncc(N3CCN(c4ccncc4)CC3)n2)cc1", "species": "Cytomegalovirus", "kind": "target", "dose": "10 µM", "protein": "UL97 kinase", "read-out": "inhibition", "value": ">15%"}
{"SMILES": "OC1(CNCCNCCCCc2ccccc2)CCCCC1", "species": "Mycobacterium tuberculosis", "kind": "culture", "read-out": "MIC", "value": "25 µM"}
{"SMILES": "O=C1c2ccccc2N2Oc3ccccc3C12c1ccccc1", "strain or isolate": "H37Rv", "read by": "resazurin", "species": "Mycobacterium tuberculosis", "kind": "culture", "dose": "6.25 µg/mL", "read-out": "inhibition", "value": "26%"}
{"SMILES": "CCN(CC)c1ccc(N=C(C(=O)Nc2ccc(S(=O)(=O)N(C)c3ccccc3)cc2)C(=O)c2ccccc2)c(C)c1", "strain or isolate": "H37Rv", "species": "Mycobacterium tuberculosis", "kind": "culture", "read-out": "MIC", "value": ">100 µg/mL"}
{"SMILES": "CCN(CC)CCNc1n[n+]([O-])c2ccccc2[n+]1[O-]", "strain or isolate": "H37Rv", "read by": "BACTEC", "species": "Mycobacterium tuberculosis", "kind": "culture", "dose": "6.25 µg/mL", "read-out": "inhibition", "value": "31%"}
{"SMILES": "CCOC(=O)c1ccc([N+](=O)[O-])cc1O", "strain or isolate": "H37Rv", "species": "Mycobacterium tuberculosis", "kind": "culture", "read-out": "MIC", "value": "100 µg/mL"}
{"SMILES": "Cc1ccc(-c2cncc(N3CCN(c4ccc(F)cc4)CC3)n2)cc1", "species": "Cytomegalovirus", "kind": "target", "protein": "UL97 kinase", "read-out": "IC50", "value": "<10 µM"}
{"SMILES": "C#CCNCCCn1c(=O)nc2n(-c3ccccc3)c3ccccc3nc-2c1=O", "strain or isolate": "H37Rv", "read by": "BACTEC", "species": "Mycobacterium tuberculosis", "kind": "culture", "read-out": "MIC bound", "value": ">12.5 µg/mL"}
{"SMILES": "COc1ccc(C2=NOC(=O)C2)cc1", "strain or isolate": "H37Rv", "species": "Mycobacterium tuberculosis", "kind": "culture", "read-out": "MIC", "value": ">100 µg/mL"}
{"SMILES": "C=CCc1ccc(O)c(OC)c1", "strain or isolate": "3178", "read by": "turbidity", "species": "Candida tropicalis", "kind": "culture", "read-out": "MIC90", "value": "495 µg/mL"}
{"SMILES": "NC(N)=NCC(=O)O", "strain or isolate": "H37Rv", "species": "Mycobacterium tuberculosis", "kind": "culture", "read-out": "MIC", "value": ">100 µg/mL"}
{"SMILES": "Cn1c(=O)c2c3oc(=O)cc(O)c3c(=O)n3c4ccccc4n(c1=O)c23", "strain or isolate": "H37Rv", "read by": "BACTEC", "species": "Mycobacterium tuberculosis", "kind": "culture", "read-out": "MIC", "value": "≥12.5 µg/mL"}
{"SMILES": "COc1ccc2c(Cl)c3cc(Cl)ccc3nc2c1", "strain or isolate": "H37Rv", "species": "Mycobacterium tuberculosis", "kind": "culture", "read-out": "MIC", "value": "100 µg/mL"}
{"SMILES": "CC12CC(=O)OC(C1)C(=O)c1ccccc12", "strain or isolate": "H37Rv", "read by": "BACTEC", "species": "Mycobacterium tuberculosis", "kind": "culture", "read-out": "MIC", "value": "≥12.5 µg/mL"}
{"SMILES": "Oc1c(-c2nc3ccccc3o2)ccc2ccccc12", "strain or isolate": "H37Rv", "species": "Mycobacterium tuberculosis", "kind": "culture", "read-out": "MIC", "value": ">100 µg/mL"}
{"SMILES": "CCC/C=c1\\[nH]c(=O)/c(=C/c2ccc(OC)cc2)[nH]c1=O", "strain or isolate": "H37Rv", "read by": "BACTEC", "species": "Mycobacterium tuberculosis", "kind": "culture", "read-out": "MIC bound", "value": ">12.5 µg/mL"}
{"SMILES": "BrCCOc1ccccc1", "strain or isolate": "H37Rv", "species": "Mycobacterium tuberculosis", "kind": "culture", "read-out": "MIC", "value": ">100 µg/mL"}
{"SMILES": "CCCCCCCCCCCNCCNC/C=C(\\C)CCC=C(C)C", "species": "Mycobacterium tuberculosis", "kind": "culture", "read-out": "MIC", "value": "25 µM"}
{"SMILES": "COc1cc(C(=O)O)cc2c1OCC(=O)N2", "strain or isolate": "H37Rv", "read by": "BACTEC", "species": "Mycobacterium tuberculosis", "kind": "culture", "read-out": "MIC bound", "value": ">12.5 µg/mL"}
{"SMILES": "Cc1ccc(N2CCN(c3cncc(-c4ccc(F)cc4)n3)CC2)cc1", "species": "Cytomegalovirus", "kind": "target", "dose": "1 µM", "protein": "UL97 kinase", "read-out": "inhibition", "value": "<50%"}
{"SMILES": "CCN(CC)CCCC(C)Nc1cc(C)nc(Nc2nc3cc(Cl)c(Cl)cc3[nH]2)n1", "strain or isolate": "H37Rv", "read by": "resazurin", "species": "Mycobacterium tuberculosis", "kind": "culture", "dose": "6.25 µg/mL", "read-out": "inhibition", "value": "57%"}
{"SMILES": "Cc1cc(C)cc(-c2cncc(N3CCN(c4ccc(Cl)c(Cl)c4)CC3)n2)c1", "species": "Cytomegalovirus", "kind": "target", "protein": "UL97 kinase", "read-out": "IC50", "value": "<100 µM"}
{"SMILES": "CC(C)=CCC/C(C)=C/CNCCNCCc1ccc(Cl)cc1Cl", "species": "Mycobacterium tuberculosis", "kind": "culture", "read-out": "MIC", "value": "50 µM"}
{"SMILES": "CCc1ccc(O)cc1O", "strain or isolate": "H37Rv", "species": "Mycobacterium tuberculosis", "kind": "culture", "read-out": "MIC", "value": ">100 µg/mL"}
{"SMILES": "O=[n+]1c2ccccc2n([O-])c2cc(Br)ccc21", "strain or isolate": "H37Rv", "read by": "BACTEC", "species": "Mycobacterium tuberculosis", "kind": "culture", "dose": "12.5 µg/mL", "read-out": "inhibition", "value": "99%"}
{"SMILES": "CN(C)c1ccc(-c2cncc(N3CCC(c4ccccc4)CC3)n2)cc1", "species": "Cytomegalovirus", "kind": "target", "dose": "1 µM", "protein": "UL97 kinase", "read-out": "inhibition", "value": "<50%"}
{"SMILES": "CCN(CC)CCNc1ccc(C)c2oc3ccc(O)cc3c(=O)c12", "strain or isolate": "H37Rv", "read by": "BACTEC", "species": "Mycobacterium tuberculosis", "kind": "culture", "dose": "12.5 µg/mL", "read-out": "inhibition", "value": "90%"}
{"SMILES": "Fc1ccc(N2CCCCC2)c(NC(=S)c2ccncc2)c1", "read by": "kinase activity", "kind": "host protein", "dose": "10 µM", "protein": "DAPK2", "read-out": "inhibition", "value": "17%"}
{"SMILES": "CCC(O)C(C)(N)CC(N)=O", "strain or isolate": "H37Rv", "species": "Mycobacterium tuberculosis", "kind": "culture", "read-out": "MIC", "value": ">100 µg/mL"}
{"SMILES": "Cn1ncc2c(c1=O)Nc1ccccc1S2(=O)=O", "strain or isolate": "H37Rv", "read by": "BACTEC", "species": "Mycobacterium tuberculosis", "kind": "culture", "dose": "12.5 µg/mL", "read-out": "inhibition", "value": "7%"}
{"SMILES": "OCCN1CCOCC1", "strain or isolate": "H37Rv", "species": "Mycobacterium tuberculosis", "kind": "culture", "read-out": "MIC", "value": ">100 µg/mL"}
{"SMILES": "O=C(Nc1cccc2c1[nH]c(=O)c1ccccc12)C(F)(F)F", "strain or isolate": "H37Rv", "read by": "BACTEC", "species": "Mycobacterium tuberculosis", "kind": "culture", "read-out": "MIC bound", "value": ">12.5 µg/mL"}
{"SMILES": "COc1ccc(OC)c(CCNCCNCc2ccccc2Sc2ccccc2CO)c1", "species": "Mycobacterium tuberculosis", "kind": "culture", "read-out": "MIC", "value": "50 µM"}
{"SMILES": "CCOc1ccc(-c2cncc(N3CCN(c4ccc(C)cc4)CC3)n2)cc1", "species": "Cytomegalovirus", "kind": "target", "dose": "10 µM", "protein": "UL97 kinase", "read-out": "inhibition", "value": ">15%"}
{"SMILES": "O=C(O)C(NCCNC(C(=O)O)c1ccccc1)c1ccccc1", "strain or isolate": "H37Rv", "species": "Mycobacterium tuberculosis", "kind": "culture", "dose": "6.25 µg/mL", "read-out": "inhibition", "value": "0%"}
{"SMILES": "C=C(O)Oc1cc(OC(C)=O)ccc1OC(C)=O", "strain or isolate": "H37Rv", "species": "Mycobacterium tuberculosis", "kind": "culture", "read-out": "MIC", "value": "100 µg/mL"}
{"SMILES": "COc1ccc(CNCCNCCc2ccccc2Cl)c(OC)c1", "species": "Mycobacterium tuberculosis", "kind": "culture", "read-out": "MIC", "value": "50 µM"}
{"SMILES": "CNc1c(Oc2ccc(C)cc2)cc(Nc2ccc(C)cc2)c2c1C(=O)c1ccccc1C2=O", "strain or isolate": "H37Rv", "species": "Mycobacterium tuberculosis", "kind": "culture", "read-out": "MIC", "value": ">100 µg/mL"}
{"SMILES": "CCCCC(CC)CN1CN(CC(CC)CCCC)CC(C)(NCCN[C@H](CO)CCSC)C1", "species": "Mycobacterium tuberculosis", "kind": "culture", "read-out": "MIC", "value": "50 µM"}
{"SMILES": "CO[C@H]1/C=C/O[C@@]2(C)Oc3c(C)c(OC(C)=O)c4c(c3C2=O)C(=O)C=C(NC(=O)/C(C)=C\\C=C\\[C@H](C)[C@H](O)[C@@H](C)[C@@H](O)[C@@H](C)[C@H](OC(C)=O)[C@@H]1C)C4=O", "strain or isolate": "RMP-R", "species": "Mycobacterium tuberculosis", "kind": "culture", "read-out": "MIC", "value": "1.6 µg/mL"}
{"SMILES": "OCc1ccc(-c2cncc(N3CCN(c4cccc5[nH]ccc45)CC3)n2)cc1", "species": "Cytomegalovirus", "kind": "target", "protein": "UL97 kinase", "read-out": "IC50", "value": "<100 µM"}
{"SMILES": "CC(C)c1ccc2c(c1)CC[C@H]1[C@](C)(CNCCNCc3ccco3)CCC[C@]21C", "species": "Mycobacterium tuberculosis", "kind": "culture", "read-out": "MIC", "value": "50 µM"}
{"SMILES": "Cc1ccc(C)n1-c1cccc(-c2ccccn2)c1", "strain or isolate": "H37Rv", "species": "Mycobacterium tuberculosis", "kind": "culture", "read-out": "MIC", "value": ">100 µg/mL"}
{"SMILES": "CO[C@H]1/C=C/O[C@@]2(C)Oc3c(C)c(O)c4c(O)c(c(/C=N/N5CCN(Cc6ccccc6)CC5)c(O)c4c3C2=O)NC(=O)/C(C)=C\\C=C\\[C@H](C)[C@H](O)[C@@H](C)[C@@H](O)[C@@H](C)[C@H](OC(C)=O)[C@@H]1C", "strain or isolate": "TAC-R", "species": "Mycobacterium tuberculosis", "kind": "culture", "read-out": "MIC", "value": "0.01 µg/mL"}
{"SMILES": "CCCCCCCCCCCCSC(CC(=O)c1ccccc1)c1ccccc1", "strain or isolate": "H37Rv", "species": "Mycobacterium tuberculosis", "kind": "culture", "read-out": "MIC", "value": "50 µg/mL"}
{"SMILES": "c1ccc(C(CCNCCNC2CCc3ccccc32)c2ccccc2)cc1", "species": "Mycobacterium tuberculosis", "kind": "culture", "read-out": "MIC", "value": "12.5 µM"}
{"SMILES": "CN(C=O)C(=S)[S][Sb]([S]C(=S)N(C)C=O)[S]c1nc2ccc(N=Nc3ccc(NS(=O)(=O)c4ccc(NC(=O)C(N5CC5)(N5CC5)N5CC5)cc4)cc3)cc2s1", "strain or isolate": "H37Rv", "read by": "BACTEC", "species": "Mycobacterium tuberculosis", "kind": "culture", "dose": "128 µg/mL", "read-out": "inhibition", "value": "67%"}
{"SMILES": "C1COCCN1", "strain or isolate": "H37Rv", "species": "Mycobacterium tuberculosis", "kind": "culture", "read-out": "MIC", "value": ">100 µg/mL"}
{"SMILES": "CC(=O)c1ccc(NC(=O)C(=O)Nn2c(=S)[nH]c3ccccc3c2=O)cc1", "strain or isolate": "H37Rv", "read by": "BACTEC", "species": "Mycobacterium tuberculosis", "kind": "culture", "dose": "12.5 µg/mL", "read-out": "inhibition", "value": "8%"}
{"SMILES": "Cc1ccc(Nc2cc(Oc3ccc(C)c(S(=O)(=O)[O-])c3)c3c4c(cc(=O)n3C)-c3ccccc3C(=O)c24)c(S(=O)(=O)[O-])c1.[Na+].[Na+]", "strain or isolate": "H37Rv", "species": "Mycobacterium tuberculosis", "kind": "culture", "read-out": "MIC", "value": ">100 µg/mL"}
{"SMILES": "CCCCN(C)N=Nc1c(C(N)=O)n[nH]c1C(C)C", "strain or isolate": "H37Rv", "read by": "BACTEC", "species": "Mycobacterium tuberculosis", "kind": "culture", "dose": "12.5 µg/mL", "read-out": "inhibition", "value": "5%"}
{"SMILES": "Cl.NC(N)=NC(N)=Nc1ccc(Cl)cc1", "strain or isolate": "H37Rv", "species": "Mycobacterium tuberculosis", "kind": "culture", "read-out": "MIC", "value": ">100 µg/mL"}
{"SMILES": "CCCCCCCCCCCNCCNC(C)Cc1ccc(Cl)cc1", "species": "Mycobacterium tuberculosis", "kind": "culture", "read-out": "MIC", "value": "50 µM"}
{"SMILES": "CCN(CC)CCCCCNc1ccnc(N)n1.Cl", "strain or isolate": "H37Rv", "species": "Mycobacterium tuberculosis", "kind": "culture", "read-out": "MIC", "value": ">100 µg/mL"}
{"SMILES": "COc1ccc(-c2cncc(N3CCN(c4ccccn4)CC3)n2)cc1OC", "species": "Cytomegalovirus", "kind": "target", "protein": "UL97 kinase", "read-out": "IC50", "value": "<10 µM"}
{"SMILES": "COC1/C=C\\C=C(/C)C(=O)Nc2cc3nc4ccc(Br)cc4oc-3c(c2=O)CC(C)CC(OC)C(O)C(C)/C=C(\\C)C1OC(N)=O", "strain or isolate": "H37Rv", "read by": "BACTEC", "species": "Mycobacterium tuberculosis", "kind": "culture", "read-out": "MIC bound", "value": "≤12.5 µg/mL"}
{"SMILES": "CC(=O)OCC1OC(OC2(COC(C)=O)OC(COC(C)=O)C(OC(C)=O)C2OC(C)=O)C(OC(C)=O)C(OC(C)=O)C1OC(C)=O", "strain or isolate": "H37Rv", "species": "Mycobacterium tuberculosis", "kind": "culture", "read-out": "MIC", "value": ">100 µg/mL"}

Percent inhibition refers to the dose given; in toxicity tests it is the harm to the cells. MIC50, MIC90 and the like: level of inhibition, or share of isolates inhibited. Conditions beyond the fields shown may differ between rows. MIC bound: limit read from a one-dose screen.